Test results from patent US9745335B2 (Blirt S.A., priority 2012, dated 2017).

System: Human erythrocytes
Experiment: hemotoxicity determination (hemolytic activity)
Format: cell-based
Conditions: for WS EH50/IC50 (selectivity coefficient): EH50 divided by antifungal IC50; for WE WS(z)/WS(AmB) (effectivity factor): selectivity coefficient of derivative relative to native antibiotic
Procedure: The hemotoxicity determination was carried out by the serial dilutions method, according to the procedure described earlier (Slisz, M., et al., E., J Antibiot 57: 669-678 (2004). Human erythrocytes were suspended in the solution of saline to obtain a cell density of suspension 2×10^7/ml. Suitable amounts of diluted solutions of compounds were added to the cell suspension in tubes and were incubated at 37° C. for 30 minutes and then centrifuged (1700×g, 10 min, 4° C.). The concentration of hemoglobin in supernatant after centrifugation of erythrocytes suspension were determined by measuring the absorbance at wavelength λ=540 nm (A540). The maximum level of hemolysis was obtained after incubation of cells suspension in the presence of 0.1% Tritone X-100 (control sample). […] From these graphs, the EH50 values were read which are the interpolated concentrations of compound, for which the A540 value is exactly 50% of the A540 value measured for the control sample.

Compound	WS EH50/IC50 (selectivity coefficient)	WE WS(z)/WS(AmB) (effectivity factor)
C[C@@H]1[C@H](O)[C@@H](C)/C=C/C=C/C=C/C=C/C=C/C=C/C=C/[C@H](O[C@@H]2O[C@H](C)[C@@H](O)[C@H](NC(=O)C(N)Cc3ccccc3F)[C@@H]2O)C[C@@H]2O[C@](O)(C[C@@H](O)C[C@@H](O)[C@H](O)CC[C@@H](O)C[C@@H](O)CC(=O)O[C@H]1C)C[C@H](O)[C@H]2C(=O)O (stereo partly shown) [Compound A38, N-o-fluorophenylalanylamphotericin B]	>52.08	>2.93
N-(4-N,N-diethylaminobenzyl)amphotericin B [Compound A19]		>10.62
N-(L-N,N-diethylphenylalanyl)amphotericin B [Compound A42]		>2.05
N-(L-N,N-dimethylphenylalanyl)amphotericin B [Compound A43]		>3.94
N-D-β-naphtylalanylamphotericin B [Compound A32]	>33.22	>1.87
